Anti-infective test results gathered from many reports (values: NIAID ChemDB through PubChem).

All rows: growth or infection tests; species: Influenza A virus; measure: EC50

Conditions beyond the fields shown may differ between rows. a–b is a range or a potency band. ECn: concentration that inhibits the pathogen or its effect by n%.

CCC(CC)O[C@@H]1C=C(C(=O)O)C[C@H](N)[C@H]1NC(C)=O ; cells: MDCK ; strain: H1N1 isolate C9D ; method: plaque count ; result: 0.7 µg/mL
Nc1nc(Cl)cc(NCC2(CO)CC(=O)C2)n1 ; cells: MDCK ; strain: H1N1 A/PR/8/34 ; method: plaque count ; result: >120 µM
Nc1nc2c(ncn2[C@@H]2O[C@H](CO)[C@@H](O)[C@H]2F)c(=O)[nH]1 ; cells: CEF ; strain: A/NWS/33/H1N1 ; method: plaque count ; result: 0.8 µM
Nc1nc(Cl)cc(NCC2(CO)CCCC2)n1 ; cells: MDCK ; strain: H1N1 A/PR/8/34 ; method: plaque count ; result: 26–51 µM
CNc1ncc2ncn([C@@H]3O[C@H](CO)[C@@H](O)[C@H]3F)c2n1 ; cells: MDCK ; strain: A/Sweden ; method: plaque count ; result: >100 µM
Nc1nc(Cl)cc(NCC2(CO)CCC(OCc3ccccc3)C2)n1 ; cells: MDCK ; strain: H1N1 A/PR/8/34 ; method: plaque count ; result: 1–1.2 µM
COc1nc2c(nc(N)n2[C@@H]2O[C@H](CO)[C@@H](O)[C@H]2F)c(=O)[nH]1 ; cells: MDCK ; strain: A/Sweden ; method: plaque count ; result: 16 µM
Nc1nc(Cl)cc(NCC2(CO)CC(OCc3ccccc3)C2)n1 ; cells: MDCK ; strain: H1N1 A/PR/8/34 ; method: plaque count ; result: 13–20 µM
O=c1ccn([C@@H]2O[C@H](CO)[C@@H](O)[C@H]2F)c(=O)[nH]1 ; cells: MDCK ; strain: A/Sweden ; method: plaque count ; result: >100 µM
CC(=O)N[C@H]1[C@H]([C@H](O)[C@H](O)CO)OC(C(=O)O)=C[C@@H]1N=C(N)N ; cells: MDCK ; strain: H1N1 A/PR/8/34 ; result: 0.42 µM
Cc1cn([C@@H]2O[C@H](CO)[C@@H](O)[C@H]2F)c(=O)[nH]c1=O ; cells: CEF ; strain: Recombinant A/X31 ; method: virus yield ; result: >20 µM
CCC(CC)[C@H](NC(C)=O)[C@@H]1C[C@@H](C(=O)O)C[C@H]1N=C(N)N ; cells: MDCK ; strain: H3N2 A/X-31 ; result: <0.01 µM
CCC ; cells: MDCK ; strain: Singapore/6/86 (H1) ; result: >50 µM
CCC(CC)(CO)CNc1cc(Cl)nc(N)n1 ; cells: MDCK ; strain: H1N1 A/PR/8/34 ; method: plaque count ; result: 190 µM
CCCC(CCC)C(NC(C)=O)C1CC(C(=O)O)CC1N=C(N)N ; cells: MDCK ; strain: H1N1 A/NWS/33 ; result: 23 µM
Nc1nc(Cl)cc(NCC2(CO)CC(O)C2)n1 ; cells: MDCK ; strain: H1N1 A/PR/8/34 ; method: plaque count ; result: >120 µM
CC(=O)N[C@H]1[C@H]([C@H](O)[C@H](O)CO)OC(C(=O)O)=C[C@@H]1N=C(N)N ; cells: MDCK ; strain: H1N1 A/Beijing/262/95 ; method: visual reading ; result: 1.5 µM
CC(N)C12CC3CC(CC(C3)C1)C2 ; cells: MDCK ; strain: H1N1 A/Singapore/6/86 ; method: ELISA ; result: 0.03 µg/mL
CCOc1nc2c(nc(N)n2[C@@H]2O[C@H](CO)[C@@H](O)[C@H]2F)c(=O)[nH]1 ; cells: CEF ; strain: Recombinant A/X31 ; method: virus yield ; result: 2.9 µM

3 of the rows above, restated:

| smiles | cells | strain | method | result |
|---|---|---|---|---|
| CCC(CC)O[C@@H]1C=C(C(=O)O)C[C@H](N)[C@H]1NC(C)=O | MDCK | H1N1 isolate C9D | plaque count | 0.7 µg/mL |
| CC(=O)N[C@H]1[C@H]([C@H](O)[C@H](O)CO)OC(C(=O)O)=C[C@@H]1N=C(N)N | MDCK | H1N1 A/Beijing/262/95 | visual reading | 1.5 µM |
| Nc1nc(Cl)cc(NCC2(CO)CC(=O)C2)n1 | MDCK | H1N1 A/PR/8/34 | plaque count | >120 µM |